Assays:
[1] = tested on: Human papillomavirus 11 strain HE611260.1; assay: Human papillomavirus 11 primary assay (replicon), C-33 A cells; assay type: cell-based; conditions: for SI50: CC50/EC50, HPV11 primary assay; for SI90: selectivity index at EC90, HPV11 primary assay
Excerpt: An HPV11 replicon assay was developed and expresses the essential E1 and E2 proteins from the native promoter. The E2 origin binding protein interacts with the virus origin of replication and recruits the E1 replicative helicase which unwinds the DNA and helps to recruit the cellular DNA replication machinery (including DNA polymerases, type I and type II topoisomerases, DNA ligase, single-stranded DNA binding proteins, proliferating cell nuclear antigen). The replication complex then drives the amplification of the replicon which can be assessed by the expression of a destabilized NanoLuc reporter gene carried on the replicon. In this assay, the replicon (pMP619) is transfected into C-33 A cells grown as monolayers in 384-well plates. At 48 h post transfection, the enzymatic activity of the destabilized NanoLuc reporter is assessed with NanoGlo reagent. […] . Beadle et al., 2016.

[2] = tested on: VZV strain 15-6-001 resistant isolate; assay type: cell-based, Varicella Zoster Virus; conditions: VZV 15-6-001 resistant isolate, HFF
Protocol: (§1) Assays were performed in monolayers as described. […] Toxicity was measured using CTG as above. […] Toxicity was measured using CTG as above.
(§2) Monolayers of HFF cells were prepared in six-well plates and incubated at 37° C. for 2 d to allow the cells to reach confluency. Media was then aspirated from the wells and 0.2 mL of virus-containing solution was added to each of three wells to yield 20-30 plaques in each well. The virus was allowed to adsorb to the cells for 1 h and the plates were agitated every 15 minutes. Compounds were diluted in assay media consisting of MEM with Earl's salts supplemented with 2% FBS, glutamine, penicillin, and gentamycin. Diluted drug was added to duplicate wells and the plates were incubated for various times, depending on the virus used. For HSV-1 and -2, the monolayers were then stained with 1% crystal violet in 20% methanol and the unbound dye removed by washing with dH20. For all other assays, the cell monolayer was stained with 1% Neutral Red solution for 4-6 h then the stain was aspirated and the cells were washed with PBS.

[3] = tested on: Guinea pig CMV strain 22122; assay: Guinea pig CMV secondary assay, strain 22122, GP lung cells; assay type: cell-based, guinea pig cytomegalovirus; conditions: Guinea pig CMV secondary assay, 22122, GP lung cells; for SI50: CC50/EC50; for SI90: selectivity index at EC90
[4] = tested on: Guinea pig CMV strain 22122; assay: Guinea pig CMV primary assay, strain 22122, GP lung cells; assay type: cell-based, guinea pig cytomegalovirus; conditions: Guinea pig CMV primary assay, 22122, GP lung cells; for SI50: CC50/EC50; for SI90: selectivity index at EC90
[5] = tested on: Adenovirus Adenoid75 strain; assay: Adenovirus primary assay, Adenoid75 strain, HFF cells; assay type: cell-based; conditions: for SI50: CC50/EC50; for SI90: selectivity index at EC90
HCMV strain AD169 = assay: HCMV primary assay (CPE), strain AD169, HFF cells; assay type: cell-based, Human Cytomegalovirus; conditions: for SI50: CC50/EC50; for SI90: selectivity index at EC90
Protocol: The antiviral activity of the compound against HCMV in the described Primary assay was measured by treating primary Human foreskin fibroblast (HFF) cells infected with HCMV with a range of compound concentrations—description of methods for this assay can be found in section 1.3.2.1. […] . Additional tested assay parameters in this Primary assay can be found in Table 3.2.1 and include EC90, S150, and S190 values—descriptions of those data points can be found in section 3.2.1.

Murine CMV strain Smith = assay: Murine CMV primary assay, strain Smith, MEF cells; assay type: cell-based, Mouse Cytomegalovirus
HSV2 strain G = assay: HSV2 primary assay, strain G, HFF cells; assay type: cell-based, herpes simplex virus 2; conditions: for SI50: CC50/EC50; for SI90: selectivity index at EC90
Protocol: as §1, §2

VZV strain Ellen = assay: VZV primary assay, strain Ellen, HFF cells; assay type: cell-based, Varicella Zoster Virus; conditions: for SI50: CC50/EC50; for SI90: selectivity index at EC90
Protocol: as §1, §2

HSV1 strain E-377 = assay: HSV1 primary assay, strain E-377, HFF cells; assay type: cell-based, Herpes Simplex Virus 1; conditions: for SI50: CC50/EC50; for SI90: selectivity index at EC90
Protocol: as §1, §2

## Nc1nc2c(ncn2CCOCP(=O)(O)O)c(=O)[nH]1 [9-[2-phosohono-methoxy)ethyl]guanine, reference compound]
[1]
  SI50: 4 µM
  SI90: 4 µM

## Nc1ccn(C[C@@H](CO)OCP(=O)(O)O)c(=O)n1 [Cidofovir, reference compound]
[2]; CC50/EC50
  SI50: 101 µM
[2]; selectivity index at EC90
  SI90: 4 µM
[3]
  SI50: 36 µM
  SI90: 28 µM
[4]
  SI50: 148 µM
  SI90: 128 µM
[5]
  SI50: 31 µM
  SI90: 1 µM

## Nc1nc(O)c2ncn(COC(CO)CO)c2n1 [Ganciclovir, ganciclovir, reference compound]
HCMV strain AD169
  SI50: 84 µM
  SI90: 26 µM
Murine CMV strain Smith; CC50/EC50
  SI50: 27 µM
Murine CMV strain Smith; selectivity index at EC90
  SI90: 6 µM

## NC(=O)CN1CCC(Nc2cc3c4ccc(F)cc4nn3cn2)CC1 [VKT-026]
HCMV strain AD169
  SI50: 18 µM
  SI90: 3 µM
HSV2 strain G
  SI50: 3 µM
  SI90: 3 µM
[3]
  SI50: 4 µM
  SI90: 1 µM
VZV strain Ellen
  SI50: 2 µM
  SI90: 2 µM
HSV1 strain E-377
  SI50: 4 µM
  SI90: 4 µM
[4]
  SI50: 1 µM
  SI90: 1 µM
[5]
  SI50: 3 µM
  SI90: 2 µM
[1]
  SI50: 3 µM
  SI90: 3 µM

## CC(C)(C)OC(=O)N[C@@H]1CC[C@H](Nc2cc3c4ccc(F)cc4nn3cn2)C1 [VKT-033]
HCMV strain AD169
  SI50: 4 µM
  SI90: 4 µM
HSV2 strain G
  SI50: 2 µM
  SI90: 2 µM
VZV strain Ellen
  SI50: 2 µM
  SI90: 2 µM
HSV1 strain E-377
  SI50: 2 µM
  SI90: 2 µM
[5]
  SI50: 3 µM
  SI90: 3 µM

## Fc1ccc2c(c1)nn1cnc(NC3CCNCC3)cc21 [VKT-319, 7-fluoro-N-(piperidin-4-yl)pyrimido[1,6-b]indazol-3-amine]
HCMV strain AD169
  SI50: 4 µM
  SI90: 4 µM

## Fc1ccc2c(c1)nn1cnc(NC3CCOCC3)cc21 [VKT-320, 7-fluoro-N-(tetrahydro-2H-pyran-4-yl)pyrimido[1,6-b]indazol-3-amine]
HCMV strain AD169
  SI50: 4 µM
  SI90: 4 µM
[1]
  SI50: 6 µM
  SI90: 3 µM

## N[C@H]1CC[C@H](Nc2cc3c4ccc(F)cc4nn3cn2)CC1 [VKT-511, (1r,4r)-N1-(7-fluoropyrimido[1,6-b]indazol-3-yl)cyclohexane-1,4-diamine]
HCMV strain AD169
  SI50: 3 µM
  SI90: 3 µM

Source: patent US20240309004A1, “SELECTIVE CYCLIN-DEPENDENT KINASE INHIBITORS AND METHODS OF THERAPEUTIC USE THEREOF” (ViroKyne Therapeutics, LLC, priority 2021, published 2024)
